Results taken from the supplement of paper PMC9931576.
Human monoclonal antibodies against the spike receptor-binding domain (heavy:light variable regions). IC50 against pseudoviruses bearing the spike of naturally observed variants; lower = stronger; >10 µg/ml means not reached at the top dose. No active / inactive call. The stated detection limit is 0.0005 µg/ml; values near or below 0.001 µg/ml lie at the floor of the assay.

How the values were obtained:
Assay in all cases: pseudovirus neutralization IC50; higher = weaker neutralization
[1] = target: SARS-CoV-2 Omicron BA.1 spike pseudovirus
Protocol: (§1)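 Single-round VSV luciferase pseudovirus mixed with antibody dilutions for 1 h and put on Huh-7 cells for about a day; IC50 from the dose curve.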

[2] = target: SARS-CoV-2 Omicron BA.2 spike pseudovirus
Protocol: as §1

[3] = target: SARS-CoV-2 Omicron BA.2.75 spike pseudovirus
Protocol: as §1

[4] = target: SARS-CoV-2 Omicron BA.5 spike pseudovirus
Protocol: as §1

[5] = target: SARS-CoV-2 early D614G spike pseudovirus
Protocol: as §1

[6] = target: SARS-CoV-2 Omicron BQ.1.1 spike pseudovirus
Protocol: as §1

[7] = target: SARS-CoV-2 Omicron XBB spike pseudovirus
Protocol: as §1

Row | Binder | pseudovirus neutralization IC50 [1] [µg/mL] | pseudovirus neutralization IC50 [2] [µg/mL] | pseudovirus neutralization IC50 [3] [µg/mL] | pseudovirus neutralization IC50 [4] [µg/mL] | pseudovirus neutralization IC50 [5] [µg/mL] | pseudovirus neutralization IC50 [6] [µg/mL] | pseudovirus neutralization IC50 [7] [µg/mL]
1 | BD56-441 (protein) chain 1: QMQLVQSGPEVKKPGTSVKVSCKSSGFTFSISAVQWVRQARGQRLEWMGWIVVGSGNTHYAQEFQERVTFTRDMATGSVYIELSSLRSEDTAVYYCAAPNCNRTNCYDAFDLWGQGTVVTVSS chain 2: EIVLTQSPGTLSLSPGERATLSCRASQSVRSSYLAWYQQKPGQAPRLLIYGASNRATGIPDKFSGSGSGTFFTLTISRLEPEDFAVYYCQHYGGSQFTFGPGTKVDI | 0.00647 | 0.00872 | 0.00251 | 1.24 | 0.00291 |  | 
2 | BD56-461 (protein) chain 1: EVQLVESGGVVLQPGGSLRLSCETSGFTFDEYAMHWVRQAPGKGLEWVSLITWDGGTTYYADSVKGRFTISRDNSKNSLYLQMNSLRPEDTALYYCAKGGEWLDFAPSIWVLDSWGQGTLVSVSS chain 2: DIVMTQSPDSLAVSLGERATINCKSSQSLLYRSNNKNFLAWYQQKPGQPPKLLINWASTRESGVPDRFSGSGSGTDFTLTISSLQAEDVAVYYCQQYYTTPPLTFGGGTKVEIK | 8.68 | 8.6 | > 10 | > 10 | 1.6 | > 10 | > 10
3 | BD56-456 (protein) chain 1: QVQLVQSGAEVKKPGASVKLSCEASGYTFTSYTLHWVRQAPGQRLEWMGWINAANGNTKYSQKFQGRVTITRDTSASTVYMYLSSLRSEDSAVYYCATAKVRGDIGGGWYFYYYGMDVWGQGTTVTVSS chain 2: DIVMTQSPLSLPVTPGEPASISCRSNESLLHSNGYNYLDWYLQKPGQSPQLLIYLGSNRASGVPDRFSGSGSDTDFTLKISRVEAEDVGVYYCMHALQSLPWTFGQGTKVEIK | 0.041 | 0.0116 | 0.037 | > 10 | 0.00375 | > 10 | > 10
4 | BD56-469 (protein) chain 1: QVQLVESGGGVVQPGRSLKLSCVASGFTFSRYGMHWVRQAPGKGLEWVAVIWYDGSKKYYADSVKGRFTISRDISKNTLYLQVNSLRAEDTALYYCARGQVYYDSGGWERSDPFDSWGQGTLVTVSS chain 2: DIQMTQSPSTLSASVGDRVTITCRASQNISSWLAWYQQKPGKAPNVLIYKASSLESGVPSRFSGSGSGTEFTLTISSLQPDDFATYYCQEYTSYWTFGQGTKVEIQ | 3.98 | 7.13 | > 10 | 8.28 | 0.205 | > 10 | > 10
5 | BD56-446 (protein) chain 1: EVQLVESGGGLIQPGGSLRLSCAASGFIVSSNYMSWVRQAPGKGLEWVSLIYPGGSTFYADSVKGRFTISRDNSKNTLYLQMNSLRAEDTAMYYCARVLPLHGDYFDYWGQGTLVTVSS chain 2: DIQMTQSPSSLSASVGDRVTITCRASQSISDYLNWYQQKPGKAPNLLIYGASSLQSGVPSRFSGSGSGTDFTLTISSLQPEDFATYFCQQSYSSPTFGPGTKVDLK | 0.0115 | 0.0083 | > 10 | 0.118 | 0.0123 | > 10 | > 10
6 | BD56-437 (protein) chain 1: QVQLQESGPGLVKPSETLSLTCTVSGASISSYSWRWIRQPPGKGLEWIGNIYDSGSTNYNPSLKSRVTISVDTSKNQFYLKVTSVTAADTAVYYCARVADYGGPYGYYGMDVWGQGTTVTVSS chain 2: DIQMTQSPSSVSASVGDRVTISCRASQSISSWLVWYQQKPGKAPKLLIYAASSLQSGVPSRFSGSGSGTDFTLTISSLQPEDSAAYYCQQSNSFPLTFGGGTKVETK | > 10 | > 10 | > 10 | > 10 | 0.00307 | > 10 | > 10
7 | BD56-458 (protein) chain 1: QVQLVESGGGVVQPGRSLRLSCAASGFTFNSYAMYWVRQAPGRGLEWVAVISYDGDKKYYADSVKGRFTISRDNSKNTVFLQMDRLRGGDTSLYYCARGTDYGDYIPWFDPWGQGTLVTVAS chain 2: QSALTQPASVSGSPGQSITISCTGTSSDIGGYNFVSWYQQYPGKAPKLVIHNVSHRPSGVSNRFSGSKSGNTASLTLSGLLAEDEADYYCSSYTATNTVLFGGGTKLTVL | 0.546 | 0.00474 | 0.326 | 0.00463 | 0.001 | > 10 | > 10
8 | BD56-466 (protein) chain 1: QVQLVESGGGVVQPGTSLRLSCAASGFTFRNYGMHWVRQAPGKGLEWVALISFDGSDKYYADSGKGRFTISRDNSKNTLYLQMNSLRAEDTAVYYCAKADSSFTMVRGVVTNNFDFWGQGTLVTVSS chain 2: SYVLTQAPSVSAVPGKTARITCGGNSIGSKSVHWYQQKPGQAPVAVIFYDSDRPSGIPERFSGSNSGNTAILSISGVEAGDEADYYCQVWDSSSDHVVFGGGTKLTVL | > 10 | > 10 | > 10 | > 10 | > 10 | > 10 | > 10
9 | BD56-474 (protein) chain 1: QVQLVQSGAEVKKPGSSVKVSCKASGGTFSNNAINWVRQAPGQGLEWMGRIIPIFGITNYAQQFQGRVTITADKSTSTGYMELSSLRSADTAVYYCARGGMVGAEYYFDYWGQGTLVTVSS chain 2: DIVMTQSPDSLAVSLGERATINCKSSQSLLYSSNNKNHLAWYQQKPGQPPKLLLYWSSTRESGVPDRFSGSGSGTDFTLTISGLQAEDVAVYYCQQYYSTSSRTFGQGTKVEIK | 0.0256 | 0.0325 | 0.00337 | > 10 | 0.00765 | > 10 | > 10
10 | BD56-470 (protein) chain 1: QVQLVQSGAEVKKPGASVKVSCKASGNTLTSYGISWVRQAPGQGPEWLGWISVYNGYTDYAQKLQDRVTMTTDTSTSTAYMELRSLRSDDTAVYYCVIDRYCSSASCYVGEYYYTMDVWGQGTTVTVSS chain 2: EIVLTQSPGTLSLSPGERATLSCRASQSVRGSYLAWYQQKPGQAPRLLIYDASNRATGIPDRFSGSGSGTDFTLTISRLEPEDFAVYYCQQYGSSPQTFGQGTKVEIK | 0.00447 | 0.00479 | 0.0043 | 3.35 | 0.00509 | 2.85 | > 10
11 | BD56-438 (protein) chain 1: QVQLVESGGGVVQPGRSLRLSCAASGFTFRSHAMHWVRQAPGKGLECVAVIWNDESKTNYVDSVKGRFTISRDNSKNILYLQMNSLRAEDTAMYYCAREGISIGVGGDDAFDIWGQGTMVTVSS chain 2: DIQVTQSPSSLSASVGDRVTITCRASQSISIFLNWYQQKPGKAPNLLIYGASSLQSGVPSRFSGRGSGTDFTLTISSLQPEDFATYYCQQSYSSPYTFGQGTKLEIK | 0.00593 | 0.00484 | 0.00618 | > 10 | 0.00203 | > 10 | > 10
12 | BD56-442 (protein) chain 1: EVQLVESGGGLVQPGRSLTLACAASEFTFDDYAMHWVRQAPGKGLEWVSGISWNGGIIGYADSVKGRFIISRDNAKNSLYLHMRSLRPEDTALYYCAKALGFGELSEYSFDSWGQGTLVTVSS chain 2: QSALTQPASVSGSPGQSITISCTGTSSDIASYNYVSWYQQHPGKAPKLMIYDVSKRPSGVSSRFSGSKSGITASLTISGLQAEDEADYFCSSYTSSSTLVFGGGTKLTVL | 0.0483 | 0.0368 | 0.0348 | > 10 | 0.0297 | > 10 | 3.24
13 | DH1183 (protein) chain 1: QVQLVESGGGVVQPGRSLRLSCAASGFTFSSYAMHWVRQAPGKGLEWVAVISYDGSNKYYADSVKGRFTISRDNSKNTLYLQMNSLRAEDTAVYYCAREDYYDSSGSLDYWGQGTLVTVSS chain 2: QSALTQPASVSGSPGQSITISCTGTSSDVGGYNYVSWYQQHPGKAPKLMIYDVSNRPSGVSNRFSGSKSGNTASLTISGLQAEDEADYYCSSYTSSSTWVFGGGTKLTVL | > 10 | > 10 | > 10 | > 10 | > 10 | > 10 | > 10
